From paper PMC11723632 (PLOS Pathogens, 2024)

B1: Nanosota-EB1-His (VHH)
VHH: QVQLQESGGGQVQAGGSLRLSCAASGSTSVIYAMGWYRQAPGKQRELVAAITRGVGSTNYADSVKGRFTISRDNAKNTMYLQMNSLKPEDTAVYYCNARLLVAPPPYEYDYWGQGTQVTVSS
B2: Nanosota-EB2-His (VHH)
VHH: QVQLQESGGGVVQAGGSLRLSCSASGRTFSNYAMAWFRQAPGKDREFAAGINYNGERTAYADSVKGRFTISRDDAKNTVYLQMNSLKPEDTAVYSCAARPWSIANLAYTYDSWGQGTQVTVSS

Molecular target: EBOV GP-ΔM (EBOV GP ectodomain lacking the mucin-like domain) (Zaire ebolavirus, Mayinga-76 …, UniProt Q05320, excluding residues 312–463, N-linked glycan on Asn563)
Assay: cell-based or functional assay

Protein	increase of the melting temperature of GP-ΔM (DSF, neutral pH)
B1	1 °C
B2	6 °C
